Measurements as given in PMC9637222 (Nature Communications, 2022).

Biological target: T1, InvF (tag-free, purified) (S. Typhimurium, UniProt P69343 1-216)
T1 sequence: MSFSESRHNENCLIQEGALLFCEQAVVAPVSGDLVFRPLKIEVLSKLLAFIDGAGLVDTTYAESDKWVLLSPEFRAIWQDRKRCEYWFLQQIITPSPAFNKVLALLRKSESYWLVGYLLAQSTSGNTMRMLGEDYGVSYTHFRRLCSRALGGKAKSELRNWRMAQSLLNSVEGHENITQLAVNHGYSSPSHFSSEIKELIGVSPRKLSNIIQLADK
Assay: ITC

B1: SicA N70A (tag-free, purified) (natural protein)
chain: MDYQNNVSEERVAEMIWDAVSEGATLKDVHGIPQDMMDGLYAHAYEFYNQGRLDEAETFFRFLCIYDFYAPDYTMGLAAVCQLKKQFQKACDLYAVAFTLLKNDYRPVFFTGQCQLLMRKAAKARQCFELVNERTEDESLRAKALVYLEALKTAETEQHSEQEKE
  binding result: binds
